Assay results published in US20120225837A1, “MEDICINAL AGENT FOR DISEASE ASSOCIATED WITH EPSTEIN-BARR VIRUS, AND METHOD FOR SCREENING OF THE MEDICINAL AGENT” (Kyoto University, priority 2007, published 2012).

Test system: 143B/EB virus-TK cells
Details: ratio of CC50 in 143B/hu-TK to CC50 in 143B/EB virus-TK
From the text: At first, a primer was designed on the basis of the data base information of NCBI, followed by extracting DNA from B95a cells (J. Virol. 1990; 64(2): 700-5), and the TK gene of an EB virus was amplified by PCR method and cloned in the multicloning site of an expression plasmid vector pCI-neo (pCI-EB-TKneo). Similarly, human-TK gene was also amplified by PCR method and cloned (pCI-huTKneo). Whether the cloned gene fragment was a desired gene or not was judged by determining the base sequence.
Then, TK-defect human osteosarcoma cells (143B) was transfected by lipofection method (Proc. Natl. Acad. Sci. USA 1987 November; 84(21): 7413-7) with the plasmid vector capable of expressing EB virus-TK gene or the plasmid vector capable of expressing human-TK gene, namely, pCI-EB-TKneo or pCI-huTKneo, and cells having each plasmid introduced therein were selected by the use of neomycin.
The drug sensitivity of 143B/EB virus-TK, 143B/hu-TK, 143B TK(−) cells and EB virus persistent infection cells was determined on the basis of the cytotoxicity of each drug. That is, cells (143B/EB virus-TK, 143B/hu-TK and 143B TK(−) cells: 5×10^4 cells/100 μl; EB virus persistent infection cells: 20×10^4 cells/100 μl) were added to 96-well flat-bottom culture plates containing 100 μl of various concentrations of each drug. After 5 days of culture, the number of surviving cells was determined by MTT [3-(4,5-dimethylthiazol-2-yl)-2,5-diphenyltetrazolium bromide] assay. The cytotoxicity of the test drugs is expressed in terms of a concentration (CC50) at which the cell viability was decreased to 50%.

Row | Structure (SMILES) | SI (selection index) | SI (selection index) (listed as medicinal agent of the present invention)
1 | O=c1[nH]c(=O)n([C@H]2C[C@H](O)[C@@H](CO)O2)cc1F [5FdU, 5-fluoro-2′-deoxyuridine] | 0.7 | 
2 | O=c1[nH]c(=O)n([C@H]2C[C@H](O)[C@@H](CO)O2)cc1C=CBr [BVDU, 5-bromovinyl-2′-deoxyuridine] | >2.5 | 
3 | Cc1cn([C@@H]2S[C@H](CO)[C@@H](O)[C@@H]2F)c(=O)[nH]c1=O [Medicinal agent of the invention, 1-(2-deoxy-2-fluoro-4-thio-β-D-arabinofuranosyl)-5-methyluracil] | >2700 | more than 2700

Read-outs that look alike come from different tables or passages of the source.
